This is one part of the list. Env chains of viruses from a treatment-interruption trial, translated from the printed DNA. IC50 / IC80 of two broadly neutralizing antibodies; lower = more sensitive virus; >50 µg/ml means not reached and <0.001 µg/ml is below the lowest dose. No active / inactive call.
Experiments:
antibody 10-1074 [1] = assay: neutralization IC50; higher = virus less sensitive to the antibody
Description: (§1)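 Pseudovirus bearing the Env chain mixed with antibody, from 50 µg/ml in fivefold dilutions, on TZM-bl reporter cells, in duplicate.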

antibody 3BNC117 [2] = assay: as above
Description: as §1

antibody 10-1074 [3] = assay: neutralization IC80; higher = virus less sensitive to the antibody
Description: as §1

antibody 3BNC117 [4] = assay: as above
Description: as §1

Row | Binder | neutralization IC50 (antibody 10-1074 [1]) | neutralization IC50 (antibody 3BNC117 [2]) | neutralization IC80 (antibody 10-1074 [3]) | neutralization IC80 (antibody 3BNC117 [4])
1 | HIV-1 Env, rebound clone, antibody arm (protein) MKVKGTKRNYQHLWRWGIMLLGILMICSAADKFWVTVYYGVPVWKEASTTLFCASDAKAYDTEVHNVWATHACVPTDPNPQEIFLENVTEDFNMWENNMVEQMHEDVISLWDQSLKPCVKLTPLCVTLNCTDLKNVTESGNATATGGNNNRTVENEGEIKNCSFNITTSIRDKVTKEYALFNALDVVPIEDSNDNSSNGGNYSSYRMIHCNTSTITQACPKVSFEPIPIHYCTPAGFAILKCNNNTFSGKGPCNNVSTVQCTHGIRPVVSTQLLLNGSLAEEEIVIRSKNFSQNTDIIIVQLNESVIINCTRPNNNTRRGVHIGPGRAFYATGDIIGDIRRAYCNISRAEWNKTLGRVAEKLREQFPNKTIVFNQSSGGDPEIATHSFNCGGEFFYCYTSKLFNSTWNDTEGKVEEGDGNITFPCRIKQIINLWQEVGKAMYAPPISGIIKCESNITGLLLTRDGGNDNNTNEIFRPWGGNMKDNWRSELYKYKVVKIEPIGVAPTKAKRRVVQREKRAVGALGAMFLGFLGAAGSTMGAASLTLTVQARLLLSGIVQQQNNLLRAIEAQQHMLQLTVWGIKQLQARVPAVERYLRDQQLLGIWGCSGKLICTTAVPWNDSWSNNKTYDDIWENMTWMAWEKEIDNYTGIIYNLLEISQNQQEKNEQELLELDKWASLWNWFDITHWLWYIKIFIMIVGGLIGLRIVFTVLSIINRVRQGYSPLSFQTHLLTSRGPDRPEGIEEEGGEQDRGRSIRLVDGFLALFWDDLRSLCLFSYHRLRDLLLIAARIVELLGRRGWGILKYWWSLLQYWSQELNKSAISLLNATAIAVAEGTDRIIEVVQRAGRAILHIPVRIRQGLERALQ | 0.402 µg/mL | > 50 µg/mL | 1.77 µg/mL | > 50 µg/mL
2 | HIV-1 Env, rebound clone, antibody arm (protein) MKVKGTKRNYQHLWRWGIMLLGILMICSAADKFWVTVYYGVPVWKEASTTLFCASDAKAYDTEVHNVWATHACVPTDPNPQEIFLENVTEDFNMWENNMVEQMHEDVISLWDQSLKPCVKLTPLCVTLNCTDLKNVTESGNATATGGNNNRTVENEGEIKNCSFNITTSIRDKVTKEYALFNALDVVPIEDSNDNSSNGGDYSSYRMIHCNTSTITQACPKVSFEPIPIHYCTPAGFAILKCNNNTFSGKGPCNNVSTVQCTHGIRPVVSTQLLLNGSLAEEEIVIRSKNFSQNTDIIIVQLNESVIINCTRPNNNTRRGVHIGPGRAFYATGDIIGDIRRAYCNISRAEWNKTLGRVAEKLREQFPNKTIVFNQSSGGDPEIATHSFNCGGEFFYCHTSKLFNSTWNDTEGKVEEGDGNITFPCRIKQIINLWQEVGKAMYAPPISGIIKCESNITGLLLTRDGGNDNNTNEIFRPWGGNMKDNWRSELYKYKVVKIEPIGVAPTKAKRRVVQREKRAVGALGAMFLGFLGAAGSTMGAASLTLTVQARLLLSGIVQQQNNLLRAIEAQQHMLQLTVWGIKQLQARVLAVERYLRDQQLLGIWGCSGKLICTTAVPWNDSWSNNKTYDDIWENMTWMAWEKEIDNYTGIIYNLLEISQNQQEKNEQELLELDKWASLWNWFDITHWLWYIKIFIMIVGGLIGLRIVFTVLSIINRVRQGYSPLSFQTHLLTSRGPDRPEGIEEEGGEQDRGRSIRLVDGFLALFWDDLRSLCLFSYHRLRDLLLIAARIVELLGRRGWGILKYWWSLLQYWSQELNKSAISLLNATAIAVAEGTDRIIEVVQRAGRAILHIPVRIRQGLERALQ | 0.098 µg/mL | > 50 µg/mL | 0.514 µg/mL | > 50 µg/mL
3 | HIV-1 Env, rebound clone, antibody arm (protein) MKVKGTKRNYQHLWRWGIMLLGILMICSAADKFWVTVYYGVPVWKEASTTLFCASDAKAYDTEVHNVWATHACVPTDPNPQEIFLENVTEDFNMWENNMVEQMHEDVISLWDQSLKPCVKLTPLCVTLNCTDLKNVTESGNATATGGNNNRTVENEGEIKNCSFNITTSIRDKVTKEYALFNALDVVPIEDSNDNSSNGGDYSSYRMIHCNTSTITQACPKVSFEPIPIHYCTPAGFAILKCNNNTFSGKGPCNNVSTVQCTHGIRPVVSTQLLLNGSLAEEEIVIRSKNFSQNTDIIIVQLNESVIINCTRPNNNTRRGVHIGPGRAFYATGDIIGDIRRAYCNISRAEWNKTLGRVAEKLREQFPNKTIVFNQSSGGDPEIATHSFNCGGEFFYCYTSKLFNSTWNDTEGKVEEGDGNITFPCKIKQIINLWQEVGKAMYAPPISGIIKCESNITGLLLTRDGGNDNNTNEIFRPWGGNMKDNWRSELYKYKVVKIEPIGVAPTKAKRRVVQREKRAVGALGAMFLGFLGAAGSTMGAASLTLTVQARLLLSGIVQQQNNLLRAIEAQQHMLQLTVWGIKQLQARVLAVERYLRDQQLLGIWGCSGKLICTTAVPWNDSWSNNKTYDDIWENMTWMAWEKEIDNYTGIIYNLLEISQNQQEKNEQELLELDKWASLWNWFDITHWLWYIKIFIMIVGGLIGLRIVFTVLSIINRVRQGYSPLSFQTHLLTSRGPDRPEGIEEEGGEQDRGRSIRLVDGFLALFWDDLRSLCLFSYHRLRDLLLIAARIVELLGRRGWGILKYWWSLLQYWSQELNKSAISLLNATAIAVAEGTDRIIEVVQRAGRAILHIPVRIRQGLERALQ | 0.072 µg/mL | > 50 µg/mL | 0.366 µg/mL | > 50 µg/mL
4 | HIV-1 Env, rebound clone, antibody arm (protein) MKVKGTKRNYQHLWRWGIMLLGILMICSAADKFWVTVYYGVPVWKEASTTLFCASDAKAYDTEVHNVWATHACVPTDPNPQEIFLENVTEDFNMWENNMVEQMHEDVISLWDQSLKPCVKLTPLCVTLNCTDLKNVTESGNATATGGNNNRTVENEGEIKNCSFNITTSIRDKVTKEYALFNALDVVPIEDSNDNSSNGGNYSSYRMIHCNTSTITQACPKVSFEPIPIHYCTPAGFAILKCNNNTFSGKGPCNNVSTVQCTHGIRPVVSTQLLLNGSLAEEEIVIRSKNFSQNTDIIIVQLNESVIINCTRPNNNTRRGVHIGPGRAFYATGDIIGDIRRAYCNISRAEWNKTLGRVAEKLREQFPNKTIVFNQSSGGDPEIATHSFNCGGEFFYCYTSKLFNSTWNDTEGKVEEGDGNITFPCRIKQIINLWQEVGKAMYAPPISGIIKCESNITGLLLTRDGGNDNNTNEIFRPWGGNMKDNWRSELYKYKVVKIEPIGVAPTKAKRRVVQREKRAVGALGAMFPGFLGAAGSTMGAASLTLTVQARLLLSGIVQQQNNLLRAIEAQQHMLQLTVWGIKQLQARVLAVERYLRDQQLLGIWGCSGKLICTTAVPWNDSWSNNKTYDDIWENMTWMAWEKEIDNYTGIIYNLLEISQNQQEKNEQELLELDKWASLWNWFDITHWLWYIKIFIMIVGGLIGLRIVFTVLSIINRVRQGYSPLSFQTHLLTSRGPDRPEGIEEEGGEQDRGRSIRLVDGFLALFWDDLRSLCLFSYHRLRDLLLIAARIVELLGRRGWGILKYWWSLLQYWSQELNKSAISLLNATAIAVAEGTDRIIEVVQRAGRAILHIPVRIRQGLERALQ | 0.278 µg/mL | > 50 µg/mL | 1.22 µg/mL | > 50 µg/mL
5 | HIV-1 Env, rebound clone, antibody arm (protein) MKVKGTKRNYQHLWRWGIMLLGILMICSAADKFWVTVYYGVPVWKEASTTLFCASDAKAYDTEVHNVWATHACVPTDPNPQEIFLENVTEDFNMWENNMVEQMHEDVISLWDQSLKPCVKLTPLCVTLNCTDLKNVTESGNATATGGNNNRTVENEGEIKNCSFNITTSIRDKVTKEYALFNALDVVPIEDSNDNSSNGGNYSSYRMIHCNTSTITQACPKVSFEPIPIHYCTPAGFAILKCNNNTFSGKGPCNNVSTVQCTHGIRPVVSTQLLLNGSLAEEEIVIRSKNFSQNTDIIIVQLNESVIINCTRPNNNTRRGVHIGPGRAFYATGDIIGDIRRAYCNISRAEWNKTLGRVAEKLREQFPNKTIVFNQSSGGDPEIATHSFNCGGEFFYCYTSKLFNSTWNDTEGKVEEGDGNITFPCRIKQIINLWQEVGKAMYAPPISGIIKCESNITGLLLTRDGGNDNNTNEIFRPWGGNMKDNWRSELYKYKVVKIEPIGVAPTKAKRRVVQREKRAVGALGAMFLGFLGAAGSTMGAASLTLTVQARLLLSGIVQQQNNLLRAIEAQQHMLQLTVWGIKQLQARVLAVERYLRDQQLLGIWGCSGKLICTTAVPWNDSWSNNKTYDDIWENMTWMAWEKEIDNYTGIIYNLLEISQNQQEKNEQELLELDKWAGLWNWFDITHWLWYIKIFIMIVGGLIGLRIVFTVLSIINRVRQGYSPLSFQTHLLTSRGPDRPEGIEEEGGEQDRGRSIRLVDGFLALFWDDLRSLCLFSYHRLRDLLLIAARIVELLGRRGWGILKYWWSLLQYWSQELNKSAISLLNATAIAVAEGTDRIIEVVQRAESYPPHTCKNKTGLGKGFAITWGASGQNAAGWNGLK | 0.274 µg/mL | > 50 µg/mL | 1.27 µg/mL | > 50 µg/mL
6 | HIV-1 Env, rebound clone, antibody arm (protein) MKVKGTKRNYQHLWRWGIMLLGILMICSAADKFWVTVYYGVPVWKEASTTLFCASDAKAYDTEVHNVWATHACVPTDPNPQEIFLENVTEDFNMWENNMVEQMHEDVISLWDQSLKPCVKLTPLCVTLNCTDLKNVTESGNATATGGNNNRTVENEGEIKNCSFNITTNALDVVPIEDSNDNSSNGGNYSSYRMIHCNTSTITQACPKVSFEPIPIHYCTPAGFAILKCNNNTFSGKGPCNNVSTVQCTHGIRPVVSTQLLLNGSLAEEEIVIRSKNFSQNTDIIIVQLNESVIINCTRPNNNTRRGVHIGPGRAFYATGDIIGDIRRAYCNISRAEWNKTLGRVAEKLREQFPNKTIVFNQSSGGDPEIATHSFNCGGEFFYCYTSKLFNSTWNDTEGKVEEGDGNITFPCRIKQIINLWQEVGKAMYAPPISGIIKCESNITGLLLTRDGGNDNNTNEIFRPWGGNMKDNWRSELYKYKVVKIEPIGVAPTKAKRRVVQREKRAVGALGAMFLGFLGAAGSTMGAASLTLTVQARLLLSGIVQQQNNLLRAIEAQQHMLQLTVWGIKQLQARVLAVERYLRDQQLLGIWGCSGKLICTTAVPWNDSWSNNKTYDDIWENMTWMAWEKEIDNYTGIIYNLLEISQNQQEKNEQELLELDKWASLWNWFDITHWLWYIKIFIMIVGGLIGLRIVFTVLSIINRVRQGYSPLSFQTHLLTSRGPDRPEGIEEEGGEQDRGRSIRLVDGFLALFWDDLRSLCLFSYHRLRDLLLIAARIVELLGRRGWGILKYWWSLLQYWSQELNKSAISLLNATAIAVAEGTDRIIEVVQRTGRAILHIPVRIRQGLERALQ | 0.173 µg/mL | > 50 µg/mL | 1.07 µg/mL | > 50 µg/mL

— the supplement of paper PMC12637763
